For the test, the target named is Mycobacterium tuberculosis SufS (Rv1464) (Mycobacterium tuberculosis). Put plainly: pull-down.

We go through one molecule from paper PMC10216065 (Biomolecules, 2023).

B1: Mycobacterium tuberculosis SufU (Rv1465), tag state not told (natural protein)
chain: GSHMVTLRLEQIYQDVILDHYKHPQHRGLREPFGAQVYHVNPICGDEVTLRVALSEDGTRVTDVSYDGQGCSISQAATSVLTEQVIGQRVPRALNIVDAFTEMVSSRGTVPGDEDVLGDGVAFAGVAKYPARVKCALLGWMAFKDALAQASEAFEEVTDERNQRTG
Turning to B1, the binding result is reported as “binds”.
